{"source": "PubChem BioAssay AID624099 (ICCB-Longwood, 2012)", "aim": "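Human genes that papillomavirus E2 requires to repress the HPV18 LCR promoter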 (primary screen)", "cells": "human C33A cervical carcinoma cells (HPV-negative) stably expressing BPV1 E2 and an HPV18 LCR luciferase reporter", "reagents": "siRNA pool against human genes, 40 nM", "timing": "72 h", "measured": "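HPV18 LCR reporter light per well, converted to plate-wise z-scores that exclude control wells, and averaged over triplicate plates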", "reading the numbers": "mean z-score and z-score: higher = stronger reporter signal, weaker E2 silencing", "active means": "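Mean z ≥ 2 together with z ≥ 2 in two or more of the three replicates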", "note": "The deposit covers about 21,000 reagents; below is an unselected part. 497 of all reagents (2.4%) count as active. 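Higher z means weaker E2 silencing; only reporter increases were scored, and knock-downs that hurt cell survival may mask genuine repressor factors.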 No sequences are given here."}
{"Gene": "LOC388643 (retired record)", "mean z-score": 1.92, "z-score, replicate A": 2.08, "z-score, replicate B": 2.04, "z-score, replicate C": 1.63, "outcome": "inactive"}
{"Gene": "RIOK3 (RIO kinase 3)", "mean z-score": 0.24, "z-score, replicate A": 0.27, "z-score, replicate B": 0.24, "z-score, replicate C": 0.21, "outcome": "inactive"}
{"Gene": "LOC389199", "mean z-score": -2.25, "z-score, replicate A": -2.51, "z-score, replicate B": -2.05, "z-score, replicate C": -2.18, "outcome": "inactive"}
{"Gene": "FOXF2 (forkhead box F2)", "mean z-score": 0.4, "z-score, replicate A": 0.46, "z-score, replicate B": 0.01, "z-score, replicate C": 0.73, "outcome": "inactive"}
{"Gene": "SNX19 (sorting nexin 19)", "mean z-score": 1, "z-score, replicate A": 1.24, "z-score, replicate B": 0.96, "z-score, replicate C": 0.81, "outcome": "inactive"}
{"Gene": "LOC401126 (retired record)", "mean z-score": -0.95, "z-score, replicate A": -0.97, "z-score, replicate B": -1.21, "z-score, replicate C": -0.67, "outcome": "inactive"}
{"Gene": "CRLS1 (cardiolipin synthase 1)", "mean z-score": 0.52, "z-score, replicate A": 0.43, "z-score, replicate B": 0.59, "z-score, replicate C": 0.54, "outcome": "inactive"}
{"Gene": "LOC401628 (retired record)", "mean z-score": 0.39, "z-score, replicate A": 0.34, "z-score, replicate B": 0.67, "z-score, replicate C": 0.14, "outcome": "inactive"}
{"Gene": "GSTM2 (glutathione S-transferase mu 2)", "mean z-score": -1.08, "z-score, replicate A": -0.87, "z-score, replicate B": -1.26, "z-score, replicate C": -1.12, "outcome": "inactive"}
{"Gene": "CELA3B (chymotrypsin like elastase 3B)", "mean z-score": -0.66, "z-score, replicate A": -1.14, "z-score, replicate B": -0.55, "z-score, replicate C": -0.29, "outcome": "inactive"}
{"Gene": "RALGAPB (Ral GTPase activating protein non-catalytic subunit beta)", "mean z-score": 0.7, "z-score, replicate A": 0.91, "z-score, replicate B": 0.6, "z-score, replicate C": 0.59, "outcome": "inactive"}
{"Gene": "OSTC (oligosaccharyltransferase complex non-catalytic subunit)", "mean z-score": 1.04, "z-score, replicate A": 1.56, "z-score, replicate B": 1.12, "z-score, replicate C": 0.42, "outcome": "inactive"}
{"Gene": "RNASET2 (ribonuclease T2)", "mean z-score": -0.62, "z-score, replicate A": -0.69, "z-score, replicate B": -0.65, "z-score, replicate C": -0.51, "outcome": "inactive"}
{"Gene": "OR1J4 (olfactory receptor family 1 subfamily J member 4)", "mean z-score": -0.5, "z-score, replicate A": -0.49, "z-score, replicate B": -0.62, "z-score, replicate C": -0.37, "outcome": "inactive"}
{"Gene": "OR4K2 (olfactory receptor family 4 subfamily K member 2)", "mean z-score": -1.47, "z-score, replicate A": -1.94, "z-score, replicate B": -1.1, "z-score, replicate C": -1.39, "outcome": "inactive"}
{"Gene": "ZNF112 (zinc finger protein 112)", "mean z-score": 0.61, "z-score, replicate A": 0.44, "z-score, replicate B": 0.49, "z-score, replicate C": 0.9, "outcome": "inactive"}
{"Gene": "BBS7 (Bardet-Biedl syndrome 7)", "mean z-score": 0.72, "z-score, replicate A": 1.05, "z-score, replicate B": 0.53, "z-score, replicate C": 0.57, "outcome": "inactive"}
{"Gene": "BCL10 (BCL10 immune signaling adaptor)", "mean z-score": 2.21, "z-score, replicate A": 2.24, "z-score, replicate B": 2.22, "z-score, replicate C": 2.17, "outcome": "active"}
{"Gene": "PLXNC1 (plexin C1)", "mean z-score": -0.38, "z-score, replicate A": -0.29, "z-score, replicate B": -0.33, "z-score, replicate C": -0.53, "outcome": "inactive"}
{"Gene": "ATOH8 (atonal bHLH transcription factor 8)", "mean z-score": -1.94, "z-score, replicate A": -1.88, "z-score, replicate B": -2.05, "z-score, replicate C": -1.88, "outcome": "inactive"}
{"Gene": "LOC400092 (retired record)", "mean z-score": 0.75, "z-score, replicate A": 1.43, "z-score, replicate B": 0.38, "z-score, replicate C": 0.45, "outcome": "inactive"}
{"Gene": "TCN1 (transcobalamin 1)", "mean z-score": 0.04, "z-score, replicate A": 0.15, "z-score, replicate B": -0.14, "z-score, replicate C": 0.11, "outcome": "inactive"}
{"Gene": "EIF3I (eukaryotic translation initiation factor 3 subunit I)", "mean z-score": -2.3, "z-score, replicate A": -1.65, "z-score, replicate B": -2.39, "z-score, replicate C": -2.88, "outcome": "inactive"}
{"Gene": "CELSR2 (cadherin EGF LAG seven-pass G-type receptor 2)", "mean z-score": -0.59, "z-score, replicate A": -0.69, "z-score, replicate B": -0.54, "z-score, replicate C": -0.53, "outcome": "inactive"}
{"Gene": "BPI (bactericidal permeability increasing protein)", "mean z-score": 0.15, "z-score, replicate A": 0.19, "z-score, replicate B": 0, "z-score, replicate C": 0.26, "outcome": "inactive"}
{"Gene": "TCIM (transcriptional and immune response regulator)", "mean z-score": 0.45, "z-score, replicate A": 0.78, "z-score, replicate B": 0.45, "z-score, replicate C": 0.12, "outcome": "inactive"}
{"Gene": "ATP5MK (ATP synthase membrane subunit k)", "mean z-score": -0.47, "z-score, replicate A": -0.38, "z-score, replicate B": -0.4, "z-score, replicate C": -0.64, "outcome": "inactive"}

Copied from the entries so far (2 entries):
{"Gene": "RALGAPB (Ral GTPase activating protein non-catalytic subunit beta)", "mean z-score": 0.7, "z-score, replicate A": 0.91, "z-score, replicate B": 0.6, "z-score, replicate C": 0.59, "outcome": "inactive"}
{"Gene": "OSTC (oligosaccharyltransferase complex non-catalytic subunit)", "mean z-score": 1.04, "z-score, replicate A": 1.56, "z-score, replicate B": 1.12, "z-score, replicate C": 0.42, "outcome": "inactive"}
